Pooled drug test results. Numbers come from NIAID ChemDB, via PubChem.

Common to all: tests in culture; species: Mycobacterium avium complex; measure: MBC

Blank or dashed fields: not listed here. Two numbers with a dash give a range or band. Neighbouring rows are from separate reports.

structure	setting	strain	result
NCC[C@H](O)C(=O)N[C@@H]1C[C@H](N)[C@@H](O[C@H]2O[C@H](CN)[C@@H](O)[C@H](O)[C@H]2O)[C@H](O)[C@H]1O[C@H]1O[C@H](CO)[C@@H](O)[C@H](N)[C@H]1O	-	ATCC 35718	32 µg/mL
CCN=c1cc2n(-c3ccc(Cl)cc3)c3ccc(Cl)cc3nc-2cc1Nc1ccc(Cl)cc1	inside macrophages	-	>4 µg/mL
CC1CN(c2cc3c(cc2F)c(=O)c(C(=O)O)cn3-c2ccc(F)cc2F)CCN1	-	ATCC 35718	>8 µg/mL
CO[C@H]1/C=C/O[C@@]2(C)Oc3c(C)c(O)c4c(O)c(c5c(c4c3C2=O)NC2(CCN(CC(C)C)CC2)N=5)=NC(=O)/C(C)=C\C=C\[C@H](C)[C@H](O)[C@@H](C)[C@@H](O)[C@@H](C)[C@H](OC(C)=O)[C@@H]1C	-	242-5	8 µg/mL
CC[C@H]1OC(=O)[C@H](C)[C@@H](O[C@H]2C[C@@](C)(OC)[C@@H](O)[C@H](C)O2)[C@H](C)[C@@H](O[C@@H]2O[C@H](C)C[C@H](N(C)C)[C@H]2O)[C@](C)(OC)C[C@@H](C)C(=O)[C@H](C)[C@@H](O)[C@]1(C)O	-	-	16–32 µg/mL
NC[C@@H]1O[C@H](O[C@H]2[C@@H](O)[C@H](O[C@@H]3[C@@H](O)[C@H](N)C[C@H](N)[C@H]3O[C@H]3O[C@H](CN)[C@@H](O)[C@H](O)[C@H]3N)O[C@@H]2CO)[C@H](N)[C@@H](O)[C@@H]1O	-	ATCC 35718	>64 µg/mL
CC[C@H]1OC(=O)[C@H](C)[C@@H](O[C@H]2C[C@@](C)(OC)[C@@H](O)[C@H](C)O2)[C@H](C)[C@@H](O[C@@H]2O[C@H](C)C[C@H](N(C)C)[C@H]2O)[C@](C)(OC)C[C@@H](C)C(=O)[C@H](C)[C@@H](O)[C@]1(C)O	-	N-444	32 µg/mL
C[C@@H]1CN(c2c(F)c(N)c3c(=O)c(C(=O)O)cn(C4CC4)c3c2F)C[C@H](C)N1	-	Isolate 90-1253	1 µg/mL
CCN=c1cc2n(-c3ccc(Cl)cc3)c3ccccc3nc-2cc1Nc1ccc(Cl)cc1	-	101	64 µg/mL
CO[C@H]1/C=C/O[C@@]2(C)Oc3c(C)c(O)c4c(=O)c(c5oc6cc(N7CCN(CC(C)C)CC7)cc(=O)c6nc5c4c3=C2O)NC(=O)/C(C)=C\C=C\[C@H](C)[C@H](O)[C@@H](C)[C@@H](O)[C@@H](C)[C@H](OC(C)=O)[C@@H]1C	-	N-444	1 µg/mL
CO[C@H]1/C=C/O[C@@]2(C)Oc3c(C)c(O)c4c(=O)c(c5oc6cc(N7CCN(CC(C)C)CC7)cc(=O)c6nc5c4c3=C2O)NC(=O)/C(C)=C\C=C\[C@H](C)[C@H](O)[C@@H](C)[C@@H](O)[C@@H](C)[C@H](OC(C)=O)[C@@H]1C	-	N-444	1 µg/mL
C[C@@H]1CN(c2c(F)c(N)c3c(=O)c(C(=O)O)cn(C4CC4)c3c2F)C[C@H](C)N1	-	ATCC 35718	8 µg/mL
CCN=c1cc2n(-c3ccc(Cl)cc3)c3ccccc3nc-2cc1Nc1ccc(Cl)cc1	inside macrophages	-	>4 µg/mL
CC[C@H]1OC(=O)[C@H](C)[C@@H](O[C@H]2C[C@@](C)(OC)[C@@H](O)[C@H](C)O2)[C@H](C)[C@@H](O[C@@H]2O[C@H](C)C[C@H](N(C)C)[C@H]2O)[C@](C)(OC)C[C@@H](C)C(=O)[C@H](C)[C@@H](O)[C@]1(C)O	-	ATCC 35718	2 µg/mL
CC1(C)CC(N=c2cc3n(-c4ccc(Cl)c(Cl)c4)c4ccccc4nc-3cc2Nc2ccc(Cl)c(Cl)c2)CC(C)(C)N1	inside macrophages	-	4 µg/mL
C[C@H]1COc2c(N3CCN(C)CC3)c(F)cc3c(=O)c(C(=O)O)cn1c23	-	ATCC 35718	>8 µg/mL
CCCCCCC(C)c1ccc2c(c1)C(=O)c1nc3ccncc3c(=O)n1-2	-	19075	0.13 µg/mL